In paper PMC3319563 (PLoS ONE, 2012):

System: CC(C)(OO)c1ccccc1
Experiment: purified protein
Conditions: co-substrate GSH

| Substance | Km [mM] |
| --- | --- |
| AtuGSTH1-1 (Agrobacterium fabrum str. C58; F22A) | 39.6 ± 2.81 |
| AtuGSTH1-1 (Agrobacterium fabrum str. C58; R187A) | 3.5 ± 0.66 |
| AtuGSTH1-1 (Agrobacterium fabrum str. C58; S25A) | 17.4 ± 1.61 |
